From patent publication US20040251215A1, “Method for killing organicsms in the course of conveying ballast water in ships and apparatus thereof” (priority 2003, published 2004)

Test: Influence of OH on quality of ballast water

hydroxyl radical [OH]
Ammonium salt (OH solution 0.63 mg/L): 0.4 µg/L | As (OH solution 0.63 mg/L): 0.43 µg/L | Cd (OH solution 0.63 mg/L): 0.7 µg/L | Cu (OH solution 0.63 mg/L): 2.6 µg/L | DO (OH solution 0.63 mg/L): 13.24 mg/L | Fe (OH solution 0.63 mg/L): 8.6 µg/L | Hg (OH solution 0.63 mg/L): 0.031 µg/L | Nitrate (OH solution 0.63 mg/L): 184.1 µg/L | Nitrite (OH solution 0.63 mg/L): 1.1 µg/L | Pb (OH solution 0.63 mg/L): 1.6 µg/L | Phosphate (OH solution 0.63 mg/L): 32.9 µg/L | TOC (OH solution 0.63 mg/L): 2.39 mg/L | Zn (OH solution 0.63 mg/L): 68.6 µg/L | pH (OH solution 0.63 mg/L): 8.12 | COD (OH solution 0.63 mg/L, untreated 0.54 mg/L): Not detectable | Ammonium salt, ratio of change (OH solution 0.63 vs 0 mg/L): −99.5% | As, ratio of change (OH solution 0.63 vs 0 mg/L): −2.3% | COD, ratio of change (OH solution 0.63 vs 0 mg/L): −100% | Cd, ratio of change (OH solution 0.63 vs 0 mg/L): −12.5% | Cu, ratio of change (OH solution 0.63 vs 0 mg/L): −38.1% | DO, ratio of change (OH solution 0.63 vs 0 mg/L): +77.2% | Electric conductivity, ratio of change (OH solution 0.63 vs 0 mg/L): +0.6% | Fe, ratio of change (OH solution 0.63 vs 0 mg/L): −40.3% | Hg, ratio of change (OH solution 0.63 vs 0 mg/L): −6.1% | Nitrate, ratio of change (OH solution 0.63 vs 0 mg/L): +17.4% | Nitrite, ratio of change (OH solution 0.63 vs 0 mg/L): −98.4% | Pb, ratio of change (OH solution 0.63 vs 0 mg/L): −75.4% | Phosphate, ratio of change (OH solution 0.63 vs 0 mg/L): +27.0% | Salinity, ratio of change (OH solution 0.63 vs 0 mg/L): 0% | TOC, ratio of change (OH solution 0.63 vs 0 mg/L): +42.3% | Turbidity, ratio of change (OH solution 0.63 vs 0 mg/L): −50.0% | Zn, ratio of change (OH solution 0.63 vs 0 mg/L): +298.8% | pH, ratio of change (OH solution 0.63 vs 0 mg/L): −0.1%
